Reference: ChEMBL document CHEMBL1649477, “Trypanothione reductase high-throughput screening campaign identifies novel classes of inhibitors with antiparasitic activity” (Antimicrob Agents Chemother, 2009)

Amino acid sequences for entries named in this document (tags omitted).
UniProt P28593, whole entry: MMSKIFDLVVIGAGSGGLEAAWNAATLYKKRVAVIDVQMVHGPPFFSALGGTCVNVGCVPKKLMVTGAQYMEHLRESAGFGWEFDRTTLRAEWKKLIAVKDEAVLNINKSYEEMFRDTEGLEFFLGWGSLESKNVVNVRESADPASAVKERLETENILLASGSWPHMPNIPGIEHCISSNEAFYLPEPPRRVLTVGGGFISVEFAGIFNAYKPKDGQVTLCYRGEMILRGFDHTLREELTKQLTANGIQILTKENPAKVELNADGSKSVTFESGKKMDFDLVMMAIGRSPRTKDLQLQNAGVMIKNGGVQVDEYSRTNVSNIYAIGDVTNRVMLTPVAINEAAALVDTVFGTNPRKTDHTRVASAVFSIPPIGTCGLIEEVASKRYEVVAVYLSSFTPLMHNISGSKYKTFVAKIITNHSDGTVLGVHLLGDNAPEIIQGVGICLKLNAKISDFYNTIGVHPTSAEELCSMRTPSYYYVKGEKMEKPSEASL

Columns and labels:
Leishmania donovani = assay: Antiprotozoal activity against Leishmania donovani MHOM/ET/67/L82 amastigotes; format: functional, organism-based
Trypanothione reductase = Trypanothione reductase (Trypanosoma cruzi, UniProt P28593); assay: Inhibition of Trypanosoma cruzi X10/1 trypanothione reductase assessed as inhibition of thionitrobenzoate formation by microplate reader analysis
[1] = test system: Trypanosoma brucei rhodesiense; assay: Antitrypanosomal activity against Trypanosoma brucei rhodesiense STIB900 bloodstream forms
Plasmodium falciparum = assay: Antiplasmodial activity against Plasmodium falciparum 3D7 erythrocytic stage; format: functional, organism-based
Trypanosoma cruzi = assay: Antiprotozoal activity against Trypanosoma cruzi Tulahuen C2C4 amastigotes; format: functional, organism-based

Which results are given for `CC(=O)OC1(C#N)CN2CCC1CC2` (stereo not given)?
IC50 (Leishmania donovani): > 30 µM; IC50 (Trypanothione reductase): 52 µM; IC50 [1]: 0.9 µM; IC50 (Plasmodium falciparum): 3 µM; IC50 (Trypanosoma cruzi): 19 µM
